A mixed list of measured activities; the numbers were collected in NIAID ChemDB.

Common to all: host cell toxicity; cells: MT-4; measure: CC50

Neighbouring rows are from separate reports. An empty or dashed field is not shown. CCn: concentration that lowers growth or viability of the cells by n%.

SMILES	read by	result
CC(C)=CCc1cc([C@@H]2CC(=O)c3c(O)cc(O)cc3O2)cc(O)c1O	-	26 µg/mL
CC(C)(C)NC(=O)[C@@H]1C[C@@H]2CCCC[C@@H]2CN1CC(O)CNC(=O)[C@@H]1N[C@@H]([C@H](NC(=O)Cc2ccccc2)C(=O)NCCNC(=O)CCCC[C@@H]2SC[C@@H]3NC(=O)N[C@@H]32)SC1(C)C	-	>100 µM
Cc1cn([C@H]2C[C@@H](O)[C@H](CO)O2)c(=O)[nH]c1=O	-	>100 µM
O=C(c1ccccc1)c1ccc2nc3n(c2c1)C(c1c(Cl)cccc1Cl)SC3	-	1.3 µM
Cc1cn([C@H]2C[C@H](N=[N+]=[N-])[C@@H](CO)O2)c(=O)[nH]c1=O	trypan blue	37.4 µM
Nc1ccn([C@@H]2CC[C@H](CO)O2)c(=O)n1	-	82.5 µM
Nc1nc2c(ncn2[C@@H]2O[C@@H](CO)[C@H](O)[C@H]2O)c(=O)[nH]1	-	100 µM
CN1c2ccccc2N2C(=O)CN(CCN3CCOCC3)C(=O)C2c2cccn21	-	>300 µM
Cc1cn([C@H]2C[C@H](N=[N+]=[N-])[C@@H](COP(=O)([O-])OCC[N+](C)(C)C)O2)c(=O)[nH]c1=O	trypan blue	>231.5 µM
CC(C)=CCC/C(C)=C/Cc1cc(-c2cc(=O)c3c(O)cc(O)cc3o2)ccc1O	-	20 µg/mL
CCc1c(Sc2cc(C)cc(C)c2)n(COCc2ccccc2)c(=S)[nH]c1=O	-	>20 µM
CC(C)=CCc1c(O)cc(O)c2c1O[C@H](c1ccccc1)CC2=O	-	>100 µg/mL
O=C(O)c1cn(C2CC2)c2c(OC(F)F)c(N3CCN(c4ncccn4)CC3)c(F)cc2c1=O	-	18 µM
Cc1cn([C@H]2C[C@H](N=[N+]=[N-])[C@@H](CO)O2)c(=O)[nH]c1=O	MTT	>93.55 µM
CCOCn1c(Sc2cc(C)cc(C)c2)c(CC)c(=O)[nH]c1=S	-	>100 µM
CC(C)(C)NC(=O)[C@@H]1C[C@@H]2CCCC[C@@H]2CN1C[C@H](O)CNC(=O)[C@@H]1N[C@@H]([C@H](NC(=O)Cc2ccccc2)C(N)=O)SC1(C)C	-	>100 µM
C=CCn1c(=O)c(C)cn([C@@H]2O[C@H](CO[Si](C)(C)C(C)(C)C)C3(OS(=O)(=O)C=C3N)[C@H]2O[Si](C)(C)C(C)(C)C)c1=O	-	>330 µM
CCc1c(Sc2cc(C)cc(C)c2)n(COCCO)c(=S)[nH]c1=O	-	172 µM
Cc1cn([C@H]2C[C@H](N=[N+]=[N-])[C@@H](CO)O2)c(=O)[nH]c1=O	-	>2 µg/mL
Fc1cccc(F)c1C1SCc2nc3ccccc3n21	-	48.6 µM
CC(C)c1c(Sc2ccccc2)n(COCc2ccccc2)c(=O)[nH]c1=O	-	20 µM
CN(C)CCN1CC(=O)N2c3ccccc3N(C)n3cccc3C2C1=O	-	>300 µM
COc1cc2c(c(OC)c1CC=C(C)C)C[C@H](c1ccc(O)c(CC=C(C)C)c1O)CO2	-	47 µg/mL
O=C(c1ccccc1)c1ccc2c(c1)nc1n2C(c2c(Cl)cccc2Cl)SC1	-	28.3 µM
CC(C)CN(C[C@@H](O)[C@H](Cc1ccccc1)NC(=O)O[C@H]1CCOC1)S(=O)(=O)c1ccc(N)cc1	-	89 µM
c1cc(CN2CCCNCCNCCCNCC2)ccc1CN1CCCNCCNCCCNCC1	-	>125 µg/mL
CN(C)c1ccc(CNC(=O)[C@@H](NC(=O)Cc2ccccc2)[C@@H]2N[C@@H](C(=O)NC[C@@H](O)CN3C[C@H]4CCCC[C@H]4C[C@H]3C(=O)NC(C)(C)C)C(C)(C)S2)cc1	-	>100 µM
CC(C)(C)OC(=O)N[C@@H](Cc1ccccc1)[C@@H](O)C[C@@H](Cc1ccc(OCc2nnnn2Cc2ccccc2)cc1)C(=O)N[C@H]1c2ccccc2C[C@H]1O	-	>200 µM
Nc1nc2c(ncn2[C@H]2C[C@@H](O)[C@H](CO)O2)c(=O)[nH]1	-	50 µM
Nc1nc(=O)n([C@@H]2CC[C@H](CO)O2)cc1F	-	70 µM
CCc1c(Cc2cc(C)cc(C)c2)n(COCCO)c(=O)[nH]c1=O	-	256 µM
CC(C)(C)OC(=O)N[C@@H](Cc1ccccc1)[C@@H](O)C[C@@H](Cc1ccc(OCP(=O)(O)O)cc1)C(=O)N[C@H]1c2ccccc2C[C@H]1O	-	>200 µM
CCc1c(Sc2cc(C)cc(C)c2)n(COCCO)c(=O)[nH]c1=O	-	155 µM
CC(C)(C)OC(=O)N[C@@H](Cc1ccccc1)[C@@H](O)C[C@@H](Cc1ccc(OCc2nn[nH]n2)cc1)C(=O)N[C@H]1c2ccccc2C[C@H]1O	-	>200 µM
CC1(C)S[C@H]([C@H](NC(=O)Cc2ccccc2)C(=O)NCc2ccccc2)N[C@H]1C(=O)NCC(O)CNC(=O)[C@@H]1N[C@@H]([C@H](NC(=O)Cc2ccccc2)C(=O)NCc2ccccc2)SC1(C)C	-	≥100 µM
CC(=O)Oc1ccc(/C=C/C(=O)O[C@@H](C(=O)O)[C@@H](OC(=O)/C=C/c2ccc(OC(C)=O)c(OC(C)=O)c2)C(=O)O)cc1OC(C)=O	XTT	45 µM
O=c1ccn([C@@H]2O[C@@H](CO)[C@H](O)[C@H]2O)c(=O)[nH]1	-	>1000 µM
Fc1ccc2c(c1)nc1n2C(c2c(Cl)cccc2Cl)SC1	-	13.3 µM
CCOC(=O)COc1ccc(C[C@H](C[C@H](O)[C@H](Cc2ccccc2)NC(=O)OC(C)(C)C)C(=O)N[C@H]2c3ccccc3C[C@H]2O)cc1	-	117 µM
O=[N+]([O-])CC1Nc2ccccc2S(=O)(=O)n2cccc21	-	7 µM
COc1cc2c(cc1/C=C/C(=O)c1ccc(O)cc1)CC(C)(C)C(C)O2	-	6 µg/mL
Fc1cccc(F)c1C1SCc2nc3cc(C(F)(F)F)ccc3n21	-	>351 µM
CCCNc1nc(C(C)c2c(F)cccc2F)c(C)c(=O)[nH]1	MTT	70 µM

For reference, 3 entries again:

SMILES | read by | result
CCc1c(Sc2cc(C)cc(C)c2)n(COCCO)c(=S)[nH]c1=O | - | 172 µM
Fc1ccc2c(c1)nc1n2C(c2c(Cl)cccc2Cl)SC1 | - | 13.3 µM
O=C(c1ccccc1)c1ccc2c(c1)nc1n2C(c2c(Cl)cccc2Cl)SC1 | - | 28.3 µM